Experimental data: PubChem BioAssay AID624099 (ICCB-Longwood, 2012)

Test: 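Knock-downs relieving repression by E2 of an HPV18 LCR luciferase reporter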 (primary screen)
Cells: human C33A cervical carcinoma cells (HPV-negative) stably expressing BPV1 E2 and an HPV18 LCR luciferase reporter
Reagent: siRNA pool against human genes, 40 nM
Time to read-out: 72 h
Read-out: 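HPV18 LCR reporter light per well, converted to plate-wise z-scores that exclude control wells, and averaged over triplicate plates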
Reading the numbers: mean z-score and z-score: higher = stronger reporter signal, weaker E2 silencing
Active means: 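Hit if mean z-score reaches 2 and two or more of three replicate z-scores also reach 2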
Shown is a random part of about 21,000 reagents. 497 of all reagents (2.4%) count as active. 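Higher z means weaker E2 silencing; only reporter increases were scored, and knock-downs that hurt cell survival may mask genuine repressor factors.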 The numbers tell different reagents against one gene apart.

| mean z-score | z-score, replicate A | z-score, replicate B | z-score, replicate C | Call | gene | reagent |
| --- | --- | --- | --- | --- | --- | --- |
| -0.58 | -0.52 | -0.53 | -0.7 | inactive | TBX6 | 1 |
| 1.59 | 1.56 | 1.78 | 1.44 | inactive | TMEM38B | 1 |
| -0.33 | -0.17 | -0.48 | -0.33 | inactive | BMP10 | 1 |
| -0.52 | -0.51 | -0.74 | -0.31 | inactive | UGT1A1 | 1 |
| -1.25 | -1.3 | -1.21 | -1.26 | inactive | GP2 | 1 |
| -0.09 | -0.24 | 0.06 | -0.09 | inactive | NEGR1 | 1 |
| 1.22 | 0.6 | 1.85 | 1.22 | inactive | CARD9 | 1 |
| -0.08 | 0 | -0.33 | 0.09 | inactive | C4orf54 | 1 |
| 0.04 | 0.15 | -0.14 | 0.11 | inactive | TCN1 | 1 |
| 0.25 | 0.04 | 0.31 | 0.39 | inactive | LOC126435 (retired record) | 1 |
| 1.99 | 1.72 | 1.95 | 2.31 | inactive | UBQLN4 | 1 |
| -0.36 | -0.15 | -0.19 | -0.76 | inactive | ZNF300P1 | 1 |
| -0.24 | -0.29 | -0.21 | -0.23 | inactive | NMT2 | 1 |
| 0.9 | 0.84 | 0.87 | 1 | inactive | PSMA3 | 1 |
| -1.26 | -1.29 | -1.06 | -1.43 | inactive | PAOX | 1 |
| -0.66 | -0.53 | -0.64 | -0.81 | inactive | SSX2 | 1 |
| -0.18 | -0.22 | -0.15 | -0.16 | inactive | TMEFF1 | 1 |
| -0.24 | -0.11 | -0.21 | -0.41 | inactive | CIMIP5 | 1 |
| -0.23 | -0.33 | -0.15 | -0.19 | inactive | GLRX3 | 1 |
| -0.09 | 0.14 | -0.26 | -0.14 | inactive | ADH1A | 1 |
| -0.91 | -0.58 | -1.31 | -0.84 | inactive | LOC402617 (retired record) | 1 |
| 0.23 | -0.04 | 0.21 | 0.53 | inactive | MAF1 | 1 |
| -0.26 | -0.37 | -0.22 | -0.19 | inactive | TNRC6C | 1 |
| 1.64 | 1.67 | 1.72 | 1.52 | inactive | PM20D1 | 1 |
| 0.81 | 0.68 | 0.95 | 0.79 | inactive | RPL19P10 | 1 |
| -1.19 | -1.22 | -1.19 | -1.17 | inactive | SMARCAD1 | 1 |
| 0 | 0.05 | 0.06 | -0.11 | inactive | MAGEA1 | 1 |
| -0.97 | -0.17 | -1.38 | -1.36 | inactive | LOC388624 (retired record) | 1 |
| 1.33 | 1.37 | 1.4 | 1.24 | inactive | HCRTR1 | 1 |
| 0.2 | 0.97 | -0.29 | -0.09 | inactive | CABP4 | 1 |
| -0.09 | -0.19 | -0.16 | 0.07 | inactive | TBCEL | 1 |
| 1.13 | 1.63 | 1.57 | 0.18 | inactive | ZSCAN2 | 1 |
| -1.73 | -1.85 | -1.53 | -1.8 | inactive | GET3 | 1 |
| 0.31 | 0.43 | 0.12 | 0.37 | inactive | H1-6 | 1 |
| 0.06 | 0.03 | 0.37 | -0.21 | inactive | MFSD2B | 1 |
| -0.06 | 0.09 | 0 | -0.28 | inactive | CD247 | 1 |
| -0.68 | -0.92 | -0.55 | -0.57 | inactive | WDR47 | 1 |
| -0.18 | -0.27 | -0.09 | -0.17 | inactive | VN2R1P | 1 |
| 0.45 | 0.52 | 0.35 | 0.49 | inactive | SYT5 | 1 |
| 0.23 | -0.07 | 0.32 | 0.44 | inactive | SPATA4 | 1 |
| 0.64 | 0.63 | 0.97 | 0.32 | inactive | ZNF77 | 1 |
| 0.97 | 0.64 | 0.96 | 1.29 | inactive | PHF3 | 1 |
| -3.71 | -4.17 | -3.48 | -3.49 | inactive | PRPF3 | 1 |
| 0.84 | 0.88 | 0.79 | 0.84 | inactive | NAT9 | 1 |
| 0.47 | 0.72 | 0.5 | 0.21 | inactive | TBC1D30 | 1 |
| -0.82 | -0.78 | -0.74 | -0.94 | inactive | TRIM59 | 1 |
| -0.44 | -0.44 | -0.58 | -0.31 | inactive | MFSD11 | 1 |
| -1.34 | -0.98 | -1.54 | -1.51 | inactive | LRRC15 | 1 |

Only “z-score, replicate C” (5 entries from above):
TNRC6C	-0.19
PM20D1	1.52
RPL19P10	0.79
SMARCAD1	-1.17
MAGEA1	-0.11

Continued:
| mean z-score | z-score, replicate A | z-score, replicate B | z-score, replicate C | Call | gene | reagent |
| --- | --- | --- | --- | --- | --- | --- |
| -0.98 | -1.23 | -0.58 | -1.14 | inactive | OR4K1 | 1 |
| -1.26 | -1.31 | -1.26 | -1.2 | inactive | DNAH12 | 1 |
| -0.15 | -0.33 | 0.01 | -0.13 | inactive | DNAH12 | 2 |
| -0.41 | -0.61 | -0.38 | -0.24 | inactive | SMC1A | 1 |
| -0.68 | -0.56 | -0.76 | -0.71 | inactive | ZNF610 | 1 |
| -0.19 | -0.11 | -0.37 | -0.08 | inactive | CYP3A5 | 1 |
| 0.23 | -0.2 | 0.11 | 0.78 | inactive | PARVG | 1 |
| -0.21 | -0.37 | -0.15 | -0.12 | inactive | RIGI | 1 |
| 2.21 | 1.31 | 2.25 | 3.06 | active | TMEM190 | 1 |
| 0.86 | 0.88 | 0.97 | 0.72 | inactive | NELFB | 1 |
| -0.79 | -0.63 | -1.16 | -0.56 | inactive | UBN1 | 1 |
| 0.07 | -0.16 | 0.31 | 0.06 | inactive | LRP2 | 1 |
| -1.31 | -1.44 | -1.31 | -1.17 | inactive | ESCO1 | 1 |
| 0.24 | 0.17 | 0.17 | 0.38 | inactive | PTGDS | 1 |
| 0.32 | 0.26 | 0.33 | 0.36 | inactive | LINC01299 | 1 |
| 1.93 | 1.77 | 1.84 | 2.18 | inactive | ITPKB | 1 |
| 0.1 | 0.27 | 0.19 | -0.17 | inactive | ZNF225 | 1 |
| -0.06 | -0.28 | -0.15 | 0.25 | inactive | PDCD7 | 1 |
| -0.28 | -0.36 | -0.18 | -0.3 | inactive | METTL26 | 1 |
| 0.2 | 0.02 | 0.25 | 0.32 | inactive | MMP27 | 1 |
| 0.97 | 0.83 | 0.91 | 1.17 | inactive | ADAM12 | 1 |
| -0.16 | -0.08 | -0.25 | -0.15 | inactive | SPRR3 | 1 |
| 1.89 | 1.7 | 1.82 | 2.14 | inactive | SAA1 | 1 |
| 0.26 | 0.37 | 0.54 | -0.13 | inactive | RBM4B | 1 |
| 0.79 | 0.4 | 0.92 | 1.06 | inactive | VCAM1 | 1 |
